Laboratory results taken from US8852647B2, “Combinations of pyrimethanil and silver compounds” (Janssen Pharmaceutica, NV, priority 2007, dated 2014).

Legend:
Rhodoturula rubra = assay: Poison Plate Assay (Experiment 1), Rhodoturula rubra; details: Table 2, pyrimethanil with silver perchlorate; ppm total active ingredient; Glucose Agar, 22° C., evaluation after two weeks
Aspergillus versicolor = assay: Poison Plate Assay (Experiment 1), Aspergillus versicolor; details: Table 2, pyrimethanil with silver perchlorate; ppm total active ingredient; Glucose Agar, 22° C., evaluation after two weeks
Escherichia coli = assay: Poison Plate Assay (Experiment 1), Escherichia coli; details: Table 2, pyrimethanil with silver perchlorate; ppm total active ingredient; Tryptose Agar, 27° C., evaluation after one week

Substance: silver perchlorate
- MIC-values (minimum inhibitory concentration) (Rhodoturula rubra): 66.67 ppm
- MIC-values (minimum inhibitory concentration) (Aspergillus versicolor): 88.99 ppm
- MIC-values (minimum inhibitory concentration) (Escherichia coli): 66.67 ppm
